The text below walks through data of paper PMC3560175 (Virology Journal, 2012).

Molecules are shown by their SMILES. Read-outs that look alike come from different tables or passages of the source.

This data set relates to Y188L RT mutant VSV-G pseudotyped HIV-1 vector. It is filed as cell-based.

On to `Cc1cn([C@H]2C[C@H](N=[N+]=[N-])[C@@H](CO)O2)c(=O)[nH]c1=O` [AZT, 3’-azido-3’-deoxythymidine], for which, for the setting “293T cells”, the “fold change in EC50 for mutant relative to wild type, Y188L” value was “[0.8]”.

In the case of `Clc1ccccc1-c1nc2ccccn2c1NC1CCCCC1` [F2], the “fold change in EC50 for mutant relative to wild type, Y188L” value was “[>121.1]”.

Take `Cc1ccnc2c1NC(=O)c1cccnc1N2C1CC1` [NVP, nevirapine]: under “293T cells”, the “fold change in EC50 for mutant relative to wild type, Y188L” value is “[>1052.6]”.
